Anti-infective test results gathered from many reports (values: NIAID ChemDB through PubChem).

Shared fields: tests in culture; organism: Poliovirus

ECn: concentration that inhibits the pathogen or its effect by n%. Lines come from different laboratories, so protocols vary. Two numbers with a dash give a range or band. Blank or dashed fields: not listed here.

| compound | endpoint | strain or isolate | cells | result |
|---|---|---|---|---|
| CCOC(=O)c1ccc(OCCCCCc2cc(C)no2)cc1 | EC50 | TYPE 2 | HELA-OHIO | 0.8 µg/mL |
| Cc1ccc(C(=O)CCCCOc2ccc(C3=NC(C)(C)CO3)cc2)s1 | EC50 | TYPE 3 | VERO | 4.93 µM |
| Clc1ccc(C2COc3ccc(Cl)cc3C2)cc1 | EC50 | TYPE 2 | HEP-2 | >10 µM |
| Nc1ccn([C@@H]2C[C@H](CO)[C@@H](O)[C@H]2O)c(=O)n1 | EC50 | - | HeLa | >400 µg/mL |
| Cc1ccc(C(=O)CCCCCCOc2ccc(C3=NC(C)CO3)cc2)s1 | EC50 | TYPE 1 | VERO | >25.97 µM |
| O=c1c(Cc2ccc(Cl)cc2)coc2ccccc12 | EC50 | TYPE 2 | HeLa | >25 µM |
| CC(=O)OCCOCN1C(C)=CC(N)=[N+](c2ccccc2)S1(=O)=O | EC50 | TYPE 1 | HeLa | >400 µg/mL |
| Nc1ncnc2c1ncn2[C@@H]1C=C(CCl)[C@@H](O)[C@H]1O | EC50 | TYPE 1 | HeLa | >40 µg/mL |
| Cc1c(-c2ccccc2)n(-c2ccc(F)cc2)c2ccc(C(C)C)cc2c1=O | EC50 | TYPE 1/SABIN | HeLa S3 | >2 µg/mL |
| C1=C(c2ccccc2)COc2ccccc21 | EC50 | IA (TYPE 2) | HEP-2 | <10 µM |
| CC(O)c1ccc2c(c1)S(=O)(=O)c1ccccc1O2 | EC50 | TYPE 3 | BSC-1 | >10 µg/mL |
| CC(=O)OCCOCN1C=CC(=O)NS1(=O)=O | EC50 | TYPE 1 | HeLa | >400 µg/mL |
| Clc1ccc(C2CCc3ccccc3O2)c(Cl)c1 | EC50 | IB (TYPE 2) | HEP-2 | >10 µM |
| Cc1cn([C@@H]2O[C@H](CO)[C@](O)(C(F)(F)F)[C@H]2O)c(=O)[nH]c1=O | EC50 | TYPE 1 | HeLa | >400 µg/mL |
| COc1cc2c(cc1OC)[C@@H]1C(N)CSCON1CC2 | EC50 | TYPE 1 | HeLa | 1 µg/mL |
| Cc1ccnc(SC/C=C/CSc2nc3cc(Cl)ccc3s2)n1 | MIC | - | - | 3.2 µM |
| Clc1ccc(C2=Cc3cc(Cl)ccc3OC2)cc1 | EC50 | II (TYPE 2) | HEP-2 | >10 µM |
| COc1ccc(CC2COc3cc(OC)cc(OC)c3C2=O)cc1 | EC50 | TYPE 2 | HeLa | >6.25 µM |
| CCCCOc1ccc(-c2snc(SC)c2C#N)cc1 | EC50 | Type 1/Brunhilde | HEP-2 | 0.3 µM |
| N#CC1=CN(COCCO)S(=O)(=O)N=C1N | EC50 | TYPE 1 | HeLa | >400 µg/mL |
| CSc1nsc(-c2ccc(C)cc2)c1C#N | EC50 | Type 1/Brunhilde | HEP-2 | 0.25 µM |
| Nc1ncnc2c1ncn2[C@@H]1C=C(CF)[C@H](O)[C@H]1O | EC50 | TYPE 1 | HeLa | >200 µg/mL |
| CC(C)CCCC(COS(=O)(=O)O)C1CCC2C3CC=C4C[C@H](O)[C@@H](OS(=O)(=O)O)CC4(C)C3CCC12C | EC50 | TYPE 3 | VERO | 58.5 µg/mL |
| O=C1/C(=C/c2ccccc2)COc2ccccc21 | EC50 | TYPE 2 | HeLa | >6.25 µM |
| N#Cc1c(Cl)nsc1Cl | EC50 | Type 1/Brunhilde | HEP-2 | >4 µM |
| COc1ccc2[nH]c3c(c2c1)CCN1OCSCC(N)[C@@H]31 | EC50 | TYPE 1 | HeLa | 0.02 µg/mL |
| CC(=O)c1cccc(Oc2ccccc2)c1 | EC50 | TYPE 3 | BSC-1 | 0.4–2 µg/mL |
| CSc1nsc(-c2c(Cl)cccc2Cl)c1C#N | EC50 | Type 1/Brunhilde | HEP-2 | >5 µM |
| Nc1nc2c(ncn2CCCC(O)CF)c(=O)[nH]1 | EC50 | TYPE 1 | HeLa | >400 µg/mL |
| Clc1ccc(C2=Cc3ccccc3OC2)cc1 | EC50 | II (TYPE 2) | HEP-2 | >10 µM |
| COc1ccc(-c2cc(N3CCCC3)no2)c(O)c1 | EC50 | SABIN (TYPE 1) | VERO | >384 µM |
| Cc1cccn2c(C3SCCS3)cnc12 | EC50 | TYPE 1 | HeLa | >1000 µM |
| Cc1ccc(C(=O)CCCCCCOc2ccc(C3=N[C@@H](C)CO3)cc2)s1 | EC50 | TYPE 3 | VERO | 3.92 µM |
| COc1ccc(-n2c(-c3ccccc3)c(C)c(=O)c3cc(C(C)C)ccc32)cc1 | EC50 | TYPE 1/SABIN | HeLa S3 | >2.5 µg/mL |
| Nc1ncnc2c1ncn2[C@@H]1O[C@H](CO)[C@](O)(C(F)(F)F)[C@H]1O | EC50 | TYPE 1 | HeLa | >400 µg/mL |
| CSc1nsc(-c2ccc(OCc3ccccc3)cc2)c1C#N | EC50 | Type 1/Brunhilde | HEP-2 | >50 µM |
| Cc1cccn2c(C3OCCO3)cnc12 | EC50 | TYPE 1 | HeLa | >1000 µM |
| CC(=O)OC(C)c1ccc2c(c1)Sc1ccccc1O2 | EC50 | TYPE 3 | BSC-1 | 0.4–2 µg/mL |
| COc1ccc(OCc2ccc(COc3c(Cl)cccc3Cl)cc2)c(Cl)c1 | EC50 | TYPE 2 | HeLa | 0.08 µg/mL |
| Cc1ccc(C(=O)CCCCOc2ccc(C3=NCC(C)O3)cc2Cl)s1 | EC50 | TYPE 2 | VERO | 3.63 µM |
| CC(=O)c1ccc2c(c1)Sc1cc(C(C)=O)ccc1O2 | EC50 | TYPE 3 | BSC-1 | >10 µg/mL |
| C#CCOc1cc(OC)ccc1-c1cc(N(CC)CC)no1 | EC50 | SABIN (TYPE 1) | VERO | >40 µM |
| Cc1ccc(C(=O)CCCCCCOc2ccc(C3=NC(C)(C)CO3)cc2)s1 | EC50 | TYPE 2 | VERO | >26.95 µM |
| COc1ccc(-c2cc(N(C)C)no2)c(O)c1 | EC50 | SABIN (TYPE 1) | VERO | >427 µM |
| O=c1c(Cc2ccc(O)cc2)coc2ccccc12 | EC50 | TYPE 2 | HeLa | >25 µM |
| S=c1cc(-c2ccc(Cl)cc2)s[nH]1 | EC50 | Type 1/Brunhilde | HEP-2 | 1.34 µM |
| NC1CSCCN2CCc3c([nH]c4ccccc34)[C@H]12 | EC50 | TYPE 1 | HeLa | 20 µg/mL |
| CSc1nsc(-c2ccc(Cl)cc2)c1C#N | EC50 | Type 1/Brunhilde | HEP-2 | 0.3 µM |
| Nc1nc2c(ncn2[C@H]2CO[C@@H](CO)C2)c(=O)[nH]1 | EC50 | TYPE 1 | HeLa | >200 µg/mL |
| Cc1ccc(-n2c(-c3ccccc3)c(C)c(=O)c3cc(C(C)C)ccc32)cc1 | EC50 | TYPE 1/SABIN | HeLa S3 | >2.5 µg/mL |
| S=c1cc(-c2ccccc2)s[nH]1 | EC50 | Type 1/Brunhilde | HEP-2 | 0.42 µM |
| Cc1cc(CCCCCCCOc2ccc(C(=O)OC(C)(C)C)cc2)on1 | EC50 | TYPE 2 | HELA-OHIO | 0.4 µg/mL |
| Nc1ncnc2c1ncn2[C@H]1C[C@@H](CO)[C@H](O)[C@@H]1O | EC50 | TYPE 1 | HeLa | >400 µg/mL |
| Cc1ccn2c(C3OCCO3)cnc2c1 | EC50 | TYPE 1 | HeLa | >1000 µM |
| CC1=CC(=O)N(c2ccccc2)S(=O)(=O)N1COCCO | EC50 | TYPE 1 | HeLa | >400 µg/mL |
| CCN(CC)c1cc(-c2ccc(OC)cc2O)on1 | EC50 | SABIN (TYPE 1) | VERO | >381 µM |
| Nc1ncnc2c1ncn2C(CF)CCCO | EC50 | TYPE 1 | HeLa | >400 µg/mL |
| Cc1ccc(C(=O)CCCCOc2ccc(C3=NC(C)CO3)cc2)s1 | EC50 | TYPE 2 | VERO | 2.13 µM |
| CC(=O)OCCOCN1C(=N)/C(=C(\C)O)C(N)=NS1(=O)=O | EC50 | TYPE 1 | HeLa | >400 µg/mL |
| O=c1c(Cc2ccc(Cl)cc2)coc2cc(Cl)cc(Cl)c12 | EC50 | TYPE 2 | HeLa | 16.89 µM |
| Nc1ncnc2c1ncn2[C@@H]1C=C(CO)[C@@H](O)[C@H]1O | EC50 | TYPE 1 | HeLa | >40 µg/mL |
| Nc1nc(Cl)c2ccn([C@H]3CO[C@@H](CO)C3)c2n1 | EC50 | TYPE 1 | HeLa | >200 µg/mL |
| CCOc1ccc(-c2onc(N(CC)CC)c2Cc2c(N(CC)CC)noc2-c2ccc(O)cc2O)c(O)c1 | EC50 | SABIN (TYPE 1) | VERO | >17 µM |
| Nc1ncnc2c1ncn2C1CC(COP(=O)(O)O)[C@@H](O)[C@H]1O | EC50 | TYPE 1 | HeLa | >10 µg/mL |
| CC(=O)c1ccc2c(c1)Cc1ccccc1O2 | EC50 | TYPE 3 | BSC-1 | 0.4 µg/mL |
| CC(C)=CCCC(CO)C1CCC2C3CC=C4C[C@H](O)[C@@H](O)CC4(C)C3CCC12C | EC50 | TYPE 3 | VERO | 56.3 µg/mL |
| Nc1ncnc2c1ncn2[C@@H]1CC[C@@H](O)[C@H]1O | MIC | TYPE 1 | - | >200 µg/mL |
| CSc1nsc(-c2ccc(Cl)cc2Cl)c1C#N | EC50 | Type 1/Brunhilde | HEP-2 | >8 µM |
| Nc1nccc2c1ncn2[C@@H]1C=C[C@@H](O)[C@H]1O | MIC | TYPE 1 | - | >400 µg/mL |
| CCOc1ccc(-c2cc(N3CCCCC3)no2)c(O)c1 | EC50 | SABIN (TYPE 1) | VERO | >347 µM |

The last 4 rows once more:

compound | endpoint | strain or isolate | cells | result
Nc1ncnc2c1ncn2[C@@H]1CC[C@@H](O)[C@H]1O | MIC | TYPE 1 | - | >200 µg/mL
CSc1nsc(-c2ccc(Cl)cc2Cl)c1C#N | EC50 | Type 1/Brunhilde | HEP-2 | >8 µM
Nc1nccc2c1ncn2[C@@H]1C=C[C@@H](O)[C@H]1O | MIC | TYPE 1 | - | >400 µg/mL
CCOc1ccc(-c2cc(N3CCCCC3)no2)c(O)c1 | EC50 | SABIN (TYPE 1) | VERO | >347 µM